Results of unrelated studies side by side (data: NIAID ChemDB).

All rows: whole-cell or culture tests; species: Staphylococcus aureus; measure: MIC

Conditions beyond the fields shown may differ between rows. Blank or dashed fields: not listed here.

structure | strain or isolate | result
CCCCNC(=O)c1c(F)cccc1SSc1cccc(F)c1C(=O)NCCCC | ATCC 6538 | 50 µg/mL
CN1CCN(c2c(F)cc3c(=O)c(C(=O)O)cn(C4CC4)c3c2Cl)CC1 | 1756 | 0.06 µg/mL
CC(C)c1c(O)c([N+](=O)[O-])cc2c1CC[C@H]1C(C)(C)CCC[C@]21C | - | >32 µg/mL
CC(C)c1cccc2c1CC[C@H]1C(C)(C)CCC[C@]21C | - | >32 µg/mL
O=C(O)c1cn(C2CC2)c2c(F)c(N3CCNC(C4CCCCC4)C3)c(Cl)cc2c1=O | 422 | 0.06 µg/mL
CC(C)c1cc2c(cc1O[C@@H]1O[C@H](CO)C(O[C@@H]3O[C@H](CO)[C@@H](O)[C@H](O)[C@H]3O)[C@H](O)[C@H]1O)[C@@]1(C)CCCC(C)(C)[C@@H]1CC2 | - | >32 µg/mL
CO[C@H]1/C=C/O[C@@]2(C)Oc3c(C)c(O)c4c(O)c(c(/C=N/N5CCN(C)CC5)c(O)c4c3C2=O)NC(=O)/C(C)=C\C=C\[C@H](C)[C@H](O)[C@@H](C)[C@@H](O)[C@@H](C)[C@H](OC(C)=O)[C@@H]1C | Terajima | 0.0078 µg/mL
Cc1c(N2C[C@@H]3CCCN[C@H]3C2)c(F)cn2c(=O)c(C(=O)O)cc(C3CC3)c12 | 285 | 0.007 µg/mL
CCCCNC(=O)c1cc(F)ccc1SSc1ccc(F)cc1C(=O)NCCCC | ATCC 6538 | 50 µg/mL
CC1CN(c2c(F)cc3c(=O)c(C(=O)O)cn(C4CC4)c3c2Cl)CCN1 | 1756 | 0.06 µg/mL
NC1CONC1=O | - | 200 µM
CC(C)(C)n1cc(C(=O)O)c(=O)c2cc(F)c(N3CCNCC3)cc21 | - | 0.03 µg/mL
NC(=O)c1ccc(C(F)(F)F)cc1SSc1cc(C(F)(F)F)ccc1C(N)=O | ATCC 6538 | 10 µg/mL
CC1CN(c2c(Cl)cc3c(=O)c(C(=O)O)cn(C4CC4)c3c2Cl)CCN1 | 133 | 0.125 µg/mL
CCCCCCCC/C=C\CCCCCCCC(=O)O | - | 2000 µM
CC(C)c1c(O)ccc2c1[C@@H]1O[C@@H]1[C@H]1C(C)(C)CCC[C@]21C | Methicillin-resistant | 32 µg/mL
CC1(C)CCC[C@]2(C)c3ccccc3CC[C@@H]12 | - | >32 µg/mL
CC(C)c1cc2c(c(C(C)C)c1O)CC[C@H]1C(C)(C)CCC[C@]21C | - | 32 µg/mL
CC(C)c1c(O)ccc2c1C(=O)C=C1C(C)(C)CCC[C@@]12C | Methicillin-resistant | >32 µg/mL
CCc1cc2c(c(C(C)C)c1O)CC[C@H]1C(C)(C)CCC[C@]21C | - | 32 µg/mL
CN1OCC(N)C1=O | - | >2500 µM
COc1c(C(=O)O)cc2c(c1C(C)C)CC[C@H]1C(C)(C)CCC[C@]21C | - | 32 µg/mL
COC(=O)C(C)N1OCC(N)C1=O | - | >2500 µM
CC[C@H](NC)C1CCN(c2c(F)cn3c(=O)c(C(=O)O)cc(C4CC4)c3c2C)C1 | NCTC10649 | 0.005 µg/mL
NC1CON(CCCO)C1=O | - | >2500 µM
CC(=O)CN1CCN(c2c(Cl)cc3c(=O)c(C(=O)O)cn(C4CC4)c3c2F)CC1 | 422 | 0.25 µg/mL
CC(C)c1cc2c(cc1O[C@H]1O[C@H](CO)[C@@H](O)[C@H](O)[C@@H]1O)[C@@]1(C)CCCC(C)(C)[C@@H]1CC2 | - | 8 µg/mL
COc1c([N+](=O)[O-])cc2c(c1C(C)C)CC[C@H]1C(C)(C)CCC[C@]21C | - | >32 µg/mL
CC1(C)CCC[C@]2(C)c3ccc(O)c(O)c3CC[C@@H]12 | - | 32 µg/mL
O=c1[nH]sc2cccc(C(F)(F)F)c12 | ATCC 6538 | 30 µg/mL
NC1CON(CCF)C1=O | - | >2500 µM
CC(C)c1c(O)ccc2c1[C@@H](O)C[C@H]1C(C)(C)CCC[C@]21C | Methicillin-resistant | >32 µg/mL
CC(=O)Oc1cc2c(cc1C(C)C)CC[C@H]1C(C)(C)CCC[C@]21C | - | >32 µg/mL
Cc1c(N2CC3=CCCN[C@@H]3C2)c(F)cn2c(=O)c(C(=O)O)cc(C3CC3)c12 | 285 | 0.049 µg/mL
COc1c(C=O)cc2c(c1C(C)C)CC[C@H]1C(C)(C)CCC[C@]21C | - | >32 µg/mL
CCC(C(=O)O)c1ccccc1 | - | 100 µM
COc1cc2oc(=O)ccc2cc1CC(O)C(C)(C)O | MRSA | 250 µg/mL
CC(C)c1cc2c(cc1O)[C@@]1(C)CCCC(C)(C)C1CC2 | - | 8 µg/mL
CC1CN(c2c(Cl)cc3c(=O)c(C(=O)O)cn(C4CC4)c3c2F)CC(C)O1 | 422 | ≤0.015 µg/mL
CC(C)c1c(O)ccc2c1CC(=O)[C@H]1C(C)(C)CCC[C@]21C | Methicillin-resistant | 8 µg/mL
CO[C@H]1/C=C/O[C@@]2(C)Oc3c(C)c(O)c4c(O)c(c5c(c4c3C2=O)NC2(CCN(CC(C)C)CC2)N=5)=NC(=O)/C(C)=C\C=C\[C@H](C)[C@H](O)[C@@H](C)[C@@H](O)[C@@H](C)[C@H](OC(C)=O)[C@@H]1C | 209P | 0.016 µg/mL
C[C@H](CCC(=O)O)[C@H]1CC[C@H]2[C@@H]3CC[C@@H]4C[C@H](O)CC[C@]4(C)[C@H]3C[C@H](O)[C@]12C | - | 2000 µM
Cc1c(N2CC[C@H](N)C2)c(F)cn2c(=O)c(C(=O)NCC(=O)O)cc(C3CC3)c12 | 1775 (ciprofloxacin-resistant) | >100 µg/mL
CC(=O)CCN1CCN(c2c(Cl)cc3c(=O)c(C(=O)O)cn(C4CC4)c3c2F)CC1 | 422 | 0.25 µg/mL

4 of the rows above, restated:

structure	strain or isolate	result
CCCCCCCC/C=C\CCCCCCCC(=O)O	-	2000 µM
CN1OCC(N)C1=O	-	>2500 µM
Cc1c(N2CC[C@H](N)C2)c(F)cn2c(=O)c(C(=O)NCC(=O)O)cc(C3CC3)c12	1775 (ciprofloxacin-resistant)	>100 µg/mL
Cc1c(N2CC3=CCCN[C@@H]3C2)c(F)cn2c(=O)c(C(=O)O)cc(C3CC3)c12	285	0.049 µg/mL